The data set has as its target delta toxin (Staphylococcus aureus, UniProt P0C1V1, L12A/V20A). The data set can be described thus: Neutralization assay of delta toxin hemolysis with human serum pool. The conditions noted are these: 5% horse RBC, FIG. 3.

Molecules are shown by their SMILES.

For `CC[C@H](C)[C@H](NC(=O)[C@H](Cc1c[nH]c2ccccc12)NC(=O)[C@H](CCCCN)NC(=O)[C@@H](NC(=O)[C@H](C)NC(=O)[C@H](CC(=O)O)NC(=O)CNC(=O)[C@@H](NC(=O)[C@@H](NC(=O)[C@H](CO)NC(=O)[C@@H](NC(=O)[C@@H](NC(=O)[C@H](CC(=O)O)NC(=O)[C@H](CCC(N)=O)NC(=O)[C@H](C)NC(=O)[C@@H](N)CCSC)[C@@H](C)CC)[C@@H](C)CC)[C@@H](C)O)[C@@H](C)CC)C(C)C)C(=O)N[C@H](C(=O)N[C@@H](CC(=O)O)C(=O)N[C@H](C(=O)N[C@@H](C)C(=O)N[C@@H](CC(N)=O)C(=O)N[C@@H](CCCCN)C(=O)N[C@@H](Cc1ccccc1)C(=O)N[C@H](C(=O)N[C@@H](CCCCN)C(=O)N[C@@H](CCCCN)C(=O)O)[C@@H](C)O)[C@@H](C)O)[C@@H](C)CC`, the “lysis of the cells by the mutant alone” value is “highly attenuated” (listed as DT-ala2) and “neither induced significant lysis of the cells” (listed as Delta toxin-ala2).

These data come from patent US9815872B2, “Toxoid peptides derived from phenol soluble modulin, delta toxin, superantigens, and fusions thereof” (dated 2017).
